Pooled drug test results. Numbers come from NIAID ChemDB, via PubChem.

All rows: tests on isolated targets; agent: HIV-1; target: Reverse transcriptase

ICn is the concentration giving n% inhibition. Two numbers with a dash give a range or band. Conditions beyond the fields shown may differ between rows. Blank or dashed fields: not listed here.

SMILES,measure,strain,changes,method,result
CCN1c2ncc(CCOc3ccc(C(=O)O)c4c3CCCC4)cc2C(=O)N(C)c2ccc(OC)nc21,IC50,-,RT-V106A,nucleotide incorporation / radiometric,>1 µM
CCN1c2ncc(CCOc3ccc(-c4cccc(C(C)C(=O)O)c4)cc3C)cc2C(=O)N(C)c2cccnc21,IC50,IIIB,RT-K103N Y181C,nucleotide incorporation / radiometric,0.05–0.1 µM
Cc1cc(C2CC2)ccc1-n1c(Br)nnc1SCC(=O)Nc1ccc(S(N)(=O)=O)cc1Cl,IC50,-,RT-Y188L,nucleotide incorporation / radiometric,>0.1 µM
Cc1nnc2c3c(c(N4CCc5ccccc5C4)nn12)C1CCC3CC1,IC50,KER2008,-,RT activity / fluorescence,5.63 µM
CC(C)(C)c1ccc(-n2nnnc2SCC(=O)Nc2ccc(-c3ccc(S(C)(=O)=O)cc3)cc2Cl)c(Cl)c1,IC50,-,RT-K103 Y181C,PicoGreen / fluorescence,<1 µM
NS(=O)(=O)c1ccc(NC(=O)CSc2nnc(Br)n2-c2ccc(C3CC3)cc2OC(F)(F)F)c(Cl)c1,IC50,-,-,nucleotide incorporation / radiometric,<0.05 µM
O=C(CSc1nnnn1-c1cc(C(F)(F)F)ccc1Cl)Nc1ccc(-c2ccc(OCCN3CCCC3)cc2)c(F)c1Cl,IC50,WT,-,PicoGreen / fluorescence,<1 µM
CCc1ccc(-n2c(Br)nnc2SCC(=O)Nc2ccc(C(=O)O)cc2Cl)c2ccccc12,IC50,-,RT-Y181C,nucleotide incorporation / radiometric,<0.05 µM
CCN1c2ncc(CCOc3ccc(C(=O)NN)cc3C)cc2C(=O)Nc2c(C)ccnc21,IC50,IIIB,-,nucleotide incorporation / radiometric,<0.05 µM
Cc1ccc(-n2c(SCC(=O)Nc3ccc(S(=O)(=O)NCCC(=O)O)cc3Cl)nnc2C(F)F)c2c1CCCC2,IC50,-,-,nucleotide incorporation / radiometric,<0.05 µM
CC(C)(C)c1ccc(-n2nnnc2SCC(=O)Nc2ccc(-c3ccc(OCCN4CCCCC4)cc3)cc2Cl)c(Cl)c1,IC50,WT,-,PicoGreen / fluorescence,<1 µM
CCN1c2ncc(CCOc3ccc(-c4ccc(CC(=O)O)cc4O)cc3C)cc2C(=O)N(C)c2cccnc21,IC50,IIIB,RT-K103N Y181C,nucleotide incorporation / radiometric,0.05–0.1 µM
CC(C)(C)c1ccc(-n2nccc2SCC(=O)Nc2ccc(-c3ccc(CC(=O)O)cc3)cc2Cl)c(Cl)c1,IC50,WT,-,PicoGreen / fluorescence,<1 µM
COc1ccc2c(C)ccc(-n3c(Br)nnc3SCC(=O)Nc3ccc(S(N)(=O)=O)cc3Br)c2c1,IC50,-,RT-Y188L,nucleotide incorporation / radiometric,0.05–0.1 µM
CCN1c2ncc(CCOc3ccc(/C=C(\C)C(=O)O)c4ccccc34)cc2C(=O)N(C)c2cccnc21,IC50,-,RT-Y188L,nucleotide incorporation / radiometric,>1 µM
Cc1ccc(-n2c(SCC(=O)Nc3ccc(C(=O)O)cc3Cl)nnc2C(F)F)c2c1CCCC2,IC50,-,-,nucleotide incorporation / radiometric,<0.05 µM
CC(=O)NC(C(=O)Nc1ccc(NC(=O)CSc2nnnn2-c2ccc(C(C)(C)C)cc2Cl)c(Cl)c1)c1ccccc1,IC50,WT,-,PicoGreen / fluorescence,<1 µM
CCN1c2ncc(CCOc3ccc4cc(C(=O)NN)ccc4c3)cc2C(=O)N(C)c2cccnc21,IC50,-,RT-V106A,nucleotide incorporation / radiometric,<0.1 µM
CCOC(=O)CN(C)C(=O)c1ccc(NC(=O)CSc2nnc(Br)n2-c2ccc(CC)c3ccccc23)c(Cl)c1,IC50,-,RT-Y181C,nucleotide incorporation / radiometric,<0.05 µM
CC(C)(O)C#Cc1ccc(NC(=O)CSc2nnnn2-c2cc3c(cc2Cl)CCC3)c(Cl)c1,IC50,-,RT-K103 Y181C,PicoGreen / fluorescence,<1 µM
CCN1c2ncc(CCOc3ccc(-c4ccc(C(=O)O)c[n+]4[O-])cc3C)cc2C(=O)N(C)c2cccnc21,IC50,IIIB,-,nucleotide incorporation / radiometric,<0.05 µM
CCN1c2ncc(CCOc3ccc(CC(=O)O)c4c3CCCC4)cc2C(=O)N(C)c2ccc(Cl)nc21,IC50,-,RT-K103N Y181C,nucleotide incorporation / radiometric,0.1–1 µM
CCN(CC)CCOc1ccc(-c2ccc(NC(=O)CSc3nnnn3-c3ccc(C(C)(C)C)cc3Cl)c(Cl)c2)cc1,IC50,-,RT-K103 Y181C,PicoGreen / fluorescence,<1 µM
CCN1c2ncc(CCOc3ccc(/C=C(\C)C(=O)O)c4ccccc34)cc2C(=O)N(C)c2ccc(Cl)nc21,IC50,-,RT-K103N Y181C,nucleotide incorporation / radiometric,0.1–1 µM
CCc1cc(NCc2nc3c(C)ccc(C)c3o2)c(=O)[nH]c1C,IC50,-,RT-Y181H,nucleotide incorporation,1.14 µM
CCN1c2ncc(CCOc3ccc(C(=O)Nc4cccc(CC(=O)O)c4)cc3C)cc2C(=O)N(C)c2cccnc21,IC50,IIIB,-,nucleotide incorporation / radiometric,<0.05 µM
COc1cc2c(cc1OC)CN(c1nn3c(C(F)F)nnc3c3ccccc13)CC2,IC50,KER2008,-,RT activity / fluorescence,4.05 µM
CCOC(=O)[C@H](Cc1ccc(O)cc1)NC(=O)c1ccc(NC(=O)CSc2nnc(Br)n2-c2ccc(C3CC3)c3ccccc23)c(Cl)c1,IC50,-,RT-Y188L,nucleotide incorporation / radiometric,0.05–0.1 µM
CC(C)(C#Cc1ccc(NC(=O)CSc2nnnn2-c2ccc(C3CC3)cc2Cl)c(Cl)c1F)OCCN1CCC(F)(F)C1,IC50,-,RT-K103 Y181C,PicoGreen / fluorescence,<1 µM
CCNC(=O)c1ccc(NC(=O)CSc2nnc(Br)n2-c2ccc(CC)c3ccccc23)c(Cl)c1,IC50,-,RT-Y188L,nucleotide incorporation / radiometric,>0.1 µM
CC(C)(C#Cc1ccc(NC(=O)CSc2nnc(C3CC3)n2-c2ccc(C3CC3)cc2Cl)c(Cl)c1)C(=O)O,IC50,-,RT-K103 Y181C,PicoGreen / fluorescence,<1 µM
Cc1cc(S(N)(=O)=O)ccc1NC(=O)CSc1nnc(CF)n1-c1ccc(C)c2c1CCCC2,IC50,-,-,nucleotide incorporation / radiometric,<0.05 µM
CN1CCC[C@H]1C(=O)NC(C)(C)C#Cc1ccc(NC(=O)CSc2nnnn2-c2ccc(C3CC3)cc2Cl)c(Cl)c1,IC50,-,RT-K103 Y181C,PicoGreen / fluorescence,<1 µM
CCN1c2ncc(CCOc3ccc(CCC(=O)O)c4ccccc34)cc2C(=O)N(C)c2ccc(Cl)nc21,IC50,-,RT-V106A,nucleotide incorporation / radiometric,0.1–1 µM
CN(C)CC(=O)NC(C)(C)C#Cc1ccc(NC(=O)CSc2nnnn2-c2cc(C(F)(F)F)ccc2Cl)c(Cl)c1,IC50,WT,-,PicoGreen / fluorescence,<1 µM
CC(C)c1nnc2c3ccccc3c(N3CCc4ccc(N)cc4C3)nn12,IC50,98US_MSC5016,-,RT activity / fluorescence,0.2 µM
O=C(CSc1nnnn1-c1ccc(C2CC2)cc1Cl)Nc1ccc(-c2ccc(OCCN3CCCC3)cc2)c(F)c1Cl,IC50,-,RT-K103 Y181C,PicoGreen / fluorescence,<1 µM
CCN1c2ncc(CCOc3ccc(Nc4ccc(C(=O)O)cc4)cc3C)cc2C(=O)N(C)c2cccnc21,IC50,IIIB,-,nucleotide incorporation / radiometric,<0.05 µM
O=C(COc1ccc(NC(=O)CSc2nnnn2-c2ccc(C3CC3)cc2Cl)c(Cl)c1)NCCc1ccccn1,IC50,-,RT-K103 Y181C,PicoGreen / fluorescence,<1 µM
CCc1ccc(-n2c(Br)nnc2SCC(=O)Nc2ccc(C(=O)N3CCC(CN)CC3)cc2Cl)c2ccccc12,IC50,-,RT-Y188L,nucleotide incorporation / radiometric,>0.1 µM
CCN1c2ncc(CCOc3ccc(-c4ccc(CCC(=O)O)o4)cc3C)cc2C(=O)N(C)c2cccnc21,IC50,IIIB,RT-K103N Y181C,nucleotide incorporation / radiometric,>0.1 µM
CCOC(=O)CNC(=O)c1ccc(NC(=O)CSc2nnc(Br)n2-c2ccc(C3CC3)c3ccccc23)c(Cl)c1,IC50,-,RT-Y181C,nucleotide incorporation / radiometric,0.05–0.1 µM
CC(=O)NNC(=O)COC(C)(C)C#Cc1ccc(NC(=O)CSc2nnnn2-c2ccc(C(C)(C)C)cc2Cl)c(Cl)c1,IC50,WT,-,PicoGreen / fluorescence,<1 µM
CC(C)C[C@H](NC(=O)c1ccc(NC(=O)CSc2nnc(Br)n2-c2ccc(C3CC3)c3ccccc23)c(Cl)c1)C(=O)O,IC50,-,RT-Y181C,nucleotide incorporation / radiometric,<0.05 µM
CC(C)(C)c1ccc(-n2nnnc2SCC(=O)Nc2ccc(NC(=O)CC3CCCC3)cc2Cl)c(Cl)c1,IC50,WT,-,PicoGreen / fluorescence,<1 µM
Cc1cc(S(N)(=O)=O)ccc1NC(=O)CSc1nnc(C(F)F)n1-c1cccc2c(C#N)cccc12,IC50,-,RT-Y188L,nucleotide incorporation / radiometric,>0.1 µM
CCN1c2ncc(CCOc3ccc(-c4ccc(C(=O)O)cc4)c(Cl)c3)cc2C(=O)N(C)c2cccnc21,IC50,IIIB,RT-K103N Y181C,nucleotide incorporation / radiometric,0.05–0.1 µM
Cc1cc(S(N)(=O)=O)ccc1NC(=O)C(C)Sc1nnc(Br)n1-c1c(C)ccc2ccccc12,IC50,-,RT-Y188L,nucleotide incorporation / radiometric,>0.1 µM
O=C(CSc1nnnn1-c1ccc(C2CC2)cc1Cl)Nc1ccc(C#CCCN2CCCC2)cc1Cl,IC50,WT,-,PicoGreen / fluorescence,<1 µM
Cc1cc(C2CC2)cc(Cl)c1-n1c(Br)nnc1SCC(=O)Nc1ccc(C(=O)O)cc1Cl,IC50,-,-,nucleotide incorporation / radiometric,<0.05 µM
CC(C)(C#Cc1ccc(NC(=O)CSc2nnnn2-c2ccc(C3CC3)cc2Cl)c(Cl)c1)NC(=O)CN1CCCC1,IC50,WT,-,PicoGreen / fluorescence,<1 µM
CNS(=O)(=O)c1ccc(NC(=O)CSc2nnc(C(F)F)n2-c2ccc(C)c3ccccc23)c(Cl)c1,IC50,-,RT-Y188L,nucleotide incorporation / radiometric,>0.1 µM
C=CC#Cc1ccc(NC(=O)CSc2nnnn2-c2ccc(C3CC3)cc2Cl)c(Cl)c1,IC50,WT,-,PicoGreen / fluorescence,<1 µM
CCc1ccc(-n2c(Br)nnc2SCC(=O)Nc2ccc(C(=O)NCCO)cc2Cl)c2ccccc12,IC50,-,RT-Y181C,nucleotide incorporation / radiometric,<0.05 µM
c1ccc2c(c1)CCN(c1nn3c(-c4ccsc4)nnc3c3ccccc13)C2,IC90,IIIB,-,RT activity / fluorescence,>100 µM
CC(C)(C#Cc1ccc(NC(=O)CSc2nnnn2-c2ccc(C3CC3)cc2Cl)c(Cl)c1)COC(N)=O,IC50,-,RT-K103 Y181C,PicoGreen / fluorescence,<1 µM
CC(C)c1ccc(-n2c(SCC(=O)Nc3ccc(S(N)(=O)=O)cc3Cl)nnc2C(F)F)c2ccccc12,IC50,-,-,nucleotide incorporation / radiometric,<0.05 µM